Compound potency records, mixed from different reports. Data source: NIAID ChemDB in PubChem.

Common to all: tests in culture; species: Candida glabrata; method: broth dilution; measure: MIC

Neighbouring rows are from separate reports.

{"compound": "CC1=C2C3=C4[C@](C)([C@@H]5C[C@@H]5[C@@]4(O)C[C@@H]4[C@]35OC(=O)C3=C5C[C@H]5[C@](O)(COC(=O)/C(C)=C/COC(=O)CCC(=O)OC3)[C@H]3C[C@H]3[C@]45C)[C@H](O)[C@]2(O)OC1=O", "strain or isolate": "ATCC 90030", "result": ">256 µg/mL"}
{"compound": "CCC(C)CC(C)CCCCCCCCC(=O)N[C@H]1C[C@@H](O)[C@H](NCCN)NC(=O)[C@@H]2[C@@H](O)CCN2C(=O)[C@H]([C@H](O)CCN)NC(=O)[C@H]([C@H](O)[C@@H](O)c2ccc(O)cc2)NC(=O)[C@@H]2C[C@@H](O)CN2C(=O)[C@H]([C@@H](C)O)NC1=O", "strain or isolate": "8661", "result": "1 µg/mL"}
{"compound": "CC1=C2C3=C4[C@](C)([C@@H]5C[C@@H]5[C@@]4(O)C[C@@H]4[C@]35OC(=O)C3=C5C[C@H]5[C@](O)(COC(=O)/C(C)=C/COC(=O)CCC(=O)OC3)[C@H]3C[C@H]3[C@]45C)[C@@H](O)[C@]2(O)OC1=O", "strain or isolate": "ATCC 90030", "result": ">256 µg/mL"}
{"compound": "O=C(/C=C/c1cc(Cl)ccc1Cl)c1c[nH]c2ccccc12", "strain or isolate": "ATCC 36583", "result": "200 µg/mL"}
{"compound": "OC(CCn1ccnc1)c1ccc(-c2ccccc2)cc1", "strain or isolate": "RTCC 1040", "result": ">64 µg/mL"}
{"compound": "C[C@@H](c1ncncc1F)[C@](O)(Cn1cncn1)c1ccc(F)cc1F", "strain or isolate": "8658", "result": "0.03 µg/mL"}
{"compound": "O=C(N/N=C/c1ccc(F)cc1)c1ccc(CNc2nc3ccccc3[nH]2)cc1", "strain or isolate": "ATC 36583", "result": "50 µg/mL"}
{"compound": "Cc1ccc(N2N=C(c3c[nH]c4ccccc34)CC2c2cc(Cl)ccc2Cl)cc1", "strain or isolate": "ATCC 36583", "result": "100 µg/mL"}
{"compound": "O/N=C(\\COc1ccccc1)c1ccccc1", "strain or isolate": "ATCC 90030", "conditions": "48 h", "result": ">125 µg/mL"}
{"compound": "CC1=C2C3=C4[C@@](C)(C(=O)[C@]2(O)OC1=O)[C@@H]1C[C@@H]1[C@@]4(O)C[C@@H]1[C@]32OC(=O)C3=C2C[C@H]2[C@](O)(COC(=O)/C(C)=C/COC(=O)CCC(=O)OC3)[C@H]3C[C@H]3[C@]12C", "strain or isolate": "ATCC 90030", "result": ">256 µg/mL"}
{"compound": "CC(C)S(=O)(=O)N1CCN(c2cnn(-c3cc(F)cc(F)c3)c(=O)c2OC2CCC(F)C2)CC1", "strain or isolate": "C454", "result": "0.1 µg/mL"}
{"compound": "COC(=O)/C(C)=C1\\C(=O)[C@H](O)[C@]2(C)C3=C1[C@]14OC(=O)C5=C1C[C@H]1[C@](O)(COC(=O)/C(C)=C/COC(=O)CCC(=O)OC5)[C@H]5C[C@H]5[C@]1(C)[C@@H]4C[C@]3(O)[C@H]1C[C@H]12", "strain or isolate": "ATCC 90030", "result": ">256 µg/mL"}
{"compound": "O/N=C(/COc1cccc(F)c1)c1ccccc1", "strain or isolate": "ATCC 90030", "conditions": "24 h", "result": ">125 µg/mL"}
{"compound": "Cc1ccc(N2N=C(c3c[nH]c4ccccc34)CC2c2ccc(Cl)cc2Cl)cc1", "strain or isolate": "ATCC 36583", "result": "200 µg/mL"}
{"compound": "CC[C@@H]([C@H](C)O)n1ncn(-c2ccc(N3CCN(c4ccc(OC[C@@H]5CO[C@@](Cn6cncn6)(c6ccc(F)cc6F)C5)cc4)CC3)cc2)c1=O", "strain or isolate": "40 isolates", "conditions": "pH 5", "result": "2 µg/mL"}
{"compound": "CCCCCCCCCCCCCCCC(=O)NC(CCCCN)C(=O)NC(CCCCN)C(N)=O", "strain or isolate": "4682", "result": "8 µg/mL"}
{"compound": "Clc1ccc(COC(Cn2ccnc2)c2ccc(Cl)cc2Cl)c(Cl)c1", "strain or isolate": "40 isolates", "conditions": "pH 7", "result": "0.03 µg/mL"}
{"compound": "CCOc1ccc2nc3cc(N=C4NC(=O)/C(=C\\c5ccc([N+](=O)[O-])cc5)S4)ccc3c(N)c2c1", "result": "500 µg/mL"}
{"compound": "COC(=O)[C@H]1[C@@H]2C[C@@H](O[C@@H]3O[C@H](C)[C@@H](O)[C@H](N)[C@@H]3O)/C=C/C=C/C=C/C=C/C=C/C=C/C=C/[C@H](C)[C@@H](O)[C@H](C)[C@H](C)OC(=O)C[C@H](O)C[C@H](O)[C@@H](O)CC[C@H](O)C[C@H](O)C[C@](O)(C[C@@H]1O)O2", "strain or isolate": "40 isolates", "conditions": "pH 5", "result": "0.25 µg/mL"}
{"compound": "O=C(N/N=C/c1ccc(Cl)cc1)c1ccc(CNc2nc3ccccc3[nH]2)cc1", "strain or isolate": "ATCC 36583", "result": "50 µg/mL"}
{"compound": "O=C(CCn1ccnc1)c1cccc(C(O)c2ccc(Br)cc2)c1", "strain or isolate": "RTCC 1054", "result": "16 µg/mL"}
{"compound": "CCC(C)CC(C)CCCCCCCCC(=O)N[C@H]1C[C@@H](O)[C@H](NCCN)NC(=O)[C@@H]2[C@@H](O)CCN2C(=O)[C@H]([C@H](O)CCN)NC(=O)[C@H]([C@H](O)[C@@H](O)c2ccc(O)cc2)NC(=O)[C@@H]2C[C@@H](O)CN2C(=O)[C@H]([C@@H](C)O)NC1=O", "strain or isolate": "ATCC 66032", "result": "0.5 µg/mL"}
{"compound": "O=C(N/N=C/c1ccc(C(F)(F)F)cc1)c1ccc(CNc2nc3ccccc3[nH]2)cc1", "strain or isolate": "ATCC 36583", "result": "50 µg/mL"}
{"compound": "O=P(O)(O)OP(=O)(O)OP(=O)(O)O", "strain or isolate": "MC425", "result": "390 µg/mL"}
{"compound": "CC(=O)N1CCN(c2ccc(OC[C@H]3CO[C@](Cn4ccnc4)(c4ccc(Cl)cc4Cl)O3)cc2)CC1", "strain or isolate": "ATCC 36583", "result": "50 µg/mL"}
{"compound": "OC(CCn1ccnc1)c1cccc(C(O)c2ccc(Cl)cc2)c1", "strain or isolate": "RTCC 1054", "result": ">64 µg/mL"}
{"compound": "O=C(/C=C/c1c(Cl)cccc1Cl)c1c[nH]c2ccccc12", "strain or isolate": "ATCC 36583", "result": "200 µg/mL"}
{"compound": "COc1ccc(OCC(=O)c2ccccc2)cc1", "strain or isolate": "ATCC 90030", "conditions": "48 h", "result": ">125 µg/mL"}
{"compound": "Nc1scc2c1c(=O)oc1ccc3ccccc3c12", "strain or isolate": "IP35", "result": "32 µg/mL"}
{"compound": "O=C(CCn1ccnc1)c1ccc(-c2ccccc2)cc1", "strain or isolate": "RTCC 1054", "result": "32 µg/mL"}
{"compound": "O=C(COc1ccccc1)c1ccccc1", "strain or isolate": "ATCC 90030", "conditions": "24 h", "result": ">125 µg/mL"}
{"compound": "Cc1ccc(/C=N/NC(=O)c2ccc(CNc3nc4ccccc4[nH]3)cc2)cc1", "strain or isolate": "ATCC 36583", "result": "50 µg/mL"}
{"compound": "O=c1c(OC2CCCC2)c(N2CCN(S(=O)(=O)NCc3ccccc3)CC2)cnn1-c1cccc(Cl)c1", "strain or isolate": "C624", "result": "0.1 µg/mL"}
{"compound": "O=C(COc1cccc(F)c1)c1ccccc1", "strain or isolate": "ATCC 90030", "conditions": "48 h", "result": ">125 µg/mL"}
{"compound": "O=C(CCn1ccnc1)c1ccc(Cl)cc1", "strain or isolate": "RTCC 1054", "result": ">64 µg/mL"}
{"compound": "COc1cc(OCC(=O)c2ccccc2)cc(OC)c1OC", "strain or isolate": "ATCC 90030", "conditions": "48 h", "result": ">125 µg/mL"}
{"compound": "OC(CCn1ccnc1)c1cccc(C(O)c2ccc(Cl)c(Cl)c2)c1", "strain or isolate": "RTCC 1040", "result": ">64 µg/mL"}
{"compound": "CCC(C)CC(C)CCCCCCCCC(=O)N[C@H]1C[C@@H](O)[C@H](NCCN)NC(=O)[C@@H]2[C@@H](O)CCN2C(=O)[C@H]([C@H](O)CCN)NC(=O)[C@H]([C@H](O)[C@@H](O)c2ccc(O)cc2)NC(=O)[C@@H]2C[C@@H](O)CN2C(=O)[C@H]([C@@H](C)O)NC1=O", "strain or isolate": "40 isolates", "conditions": "pH 5", "result": "0.5 µg/mL"}

3 of the rows above, restated:

CC(=O)N1CCN(c2ccc(OC[C@H]3CO[C@](Cn4ccnc4)(c4ccc(Cl)cc4Cl)O3)cc2)CC1 ; strain or isolate: ATCC 36583 ; result: 50 µg/mL
O/N=C(/COc1cccc(F)c1)c1ccccc1 ; strain or isolate: ATCC 90030 ; conditions: 24 h ; result: >125 µg/mL
Cc1ccc(N2N=C(c3c[nH]c4ccccc34)CC2c2ccc(Cl)cc2Cl)cc1 ; strain or isolate: ATCC 36583 ; result: 200 µg/mL